Measured values: patent US9617276B2, “Compounds and methods for treating AIDS and HIV infections” (priority 2009, dated 2017)
Like-named read-outs stand apart in the source and are kept apart here.

What was measured:
HIV-1 = test: antiviral assay (IC50); settings: Table 2
HIV-1 protease = HIV-1 protease (Human immunodeficiency virus type 1 group M subtype B, UniProt P04585)
HIV-1NL4-3 [1] = test: p24 Gag inhibition in MT-4 cells, HIV-1NL4-3; type: cell-based; settings: read-out: EC50 (μM), HIV-1NL4-3, Table 9, mean ± 1 SD
HIV-1NL4-3 [2] = test: in vitro selection of PI-resistant HIV-1 variants in MT-4 cells; type: cell-based; settings: HIV-1NL4-3 in MT-4 cells, increasing drug concentrations
HIV-1286-1μM = settings: read-out: EC50 (μM), HIV-1286-1 μM; MT-4 cells, p24 Gag

Row | SMILES | IC50 (HIV-1) | Ki (HIV-1 protease; Table 2) | EC50 (HIV-1NL4-3 [1]) | passage by which HIV-1 variants replicating in the presence of 1 μM drug emerged (HIV-1NL4-3 [2]) | EC50 (HIV-1286-1μM) | Ki (HIV-1 protease) | Ki (HIV-1 protease; Table 1, acyclic compounds)
1 | COc1ccc2c(c1)OCCCCCCN(C[C@@H](O)[C@H](Cc1ccccc1)NC(=O)O[C@H]1CO[C@H]3OCC[C@H]31)S2(=O)=O | < 0.1 µM | < 0.001 µM |  |  |  |  | 
2 | COc1ccc2c(c1)OCCCCCCCCN(C[C@@H](O)[C@H](Cc1ccccc1)NC(=O)O[C@H]1CO[C@H]3OCC[C@H]31)S2(=O)=O | < 0.1 µM | < 0.001 µM | 0.033 µM | 33 passages | > 1 µM |  | 
3 | C=CCOc1cc(OC)ccc1S(=O)(=O)N(CC=C)C[C@@H](O)[C@H](Cc1ccccc1)NC(=O)O[C@H]1CO[C@H]2OCC[C@H]21 |  |  |  |  |  | 0.0001 µM | < 0.001 µM
